Anti-infective test results gathered from many reports (values: NIAID ChemDB through PubChem).

Shared fields: growth or infection tests; species: HIV-2; endpoint: EC50

ECn is the concentration giving n% inhibition of infection, replication or growth. Rows are shuffled and stem from different studies. An empty or dashed field is not shown.

| structure | cell line | strain or isolate | value |
|---|---|---|---|
| Cc1cn([C@H]2C=C[C@@H](COP3(=O)OCc4cc(C(C)(C)C)cc(C(C)(C)C)c4O3)O2)c(=O)[nH]c1=O | CEM |  | 2 µM |
| CCCCCCCCCCCCCCCOP(=O)(OCc1ccc(OC(=O)CCCC)cc1)OP(=O)(O)OP(=O)(O)OC[C@@H]1C=C[C@H](n2cc(C)c(=O)[nH]c2=O)O1 | CEM/TK- |  | 0.39 µM |
| COc1ccc2c(c1)COP(=O)(OC[C@H]1O[C@@H](n3cc(C)c(=O)[nH]c3=O)C[C@@H]1N=[N+]=[N-])O2 | CEM + CEM TK- |  | 30 µM |
| Cc1cn([C@H]2C=C[C@@H](COP3(=O)Oc4ccccc4C(CCl)O3)O2)c(=O)[nH]c1=O | CEM + CEM/O |  | 0.35 µM |
| CN=C1N(C)C(=O)OC12[C@@H](CO[Si](C)(C)C(C)(C)C)O[C@@H](n1cc(C)c(=O)n(C)c1=O)[C@@H]2O[Si](C)(C)C(C)(C)C | MT-4 | ROD | >7 µM |
| Cc1nnc(C(C)C)n1C1C[C@H]2CC[C@@H](C1)N2CC[C@H](NC(=O)C1CCC(F)(F)CC1)c1ccccc1 |  | X4 | >1000 nM |
| Cc1cn([C@H]2C=C[C@@H](CO)O2)c(=O)[nH]c1=O | CEM + CEM/0 |  | 0.35 µM |
| O=C(O)P(=O)(O)O | PBMC | ROD | 0.44 µM |
| CC(C)CN(C[C@@H](O)[C@H](Cc1ccccc1)NC(=O)O[C@H]1CCOC1)S(=O)(=O)c1ccc(N)cc1 | MT-4 | ZY | 0.34 µM |
| Nc1nc(NC2CC2)c2ncn(C3CC=C[C@H]3CO)c2n1 | CEM | ROD | >100 µM |
| O=C1N(Cc2ccc(CO)cc2)[C@H](Cc2ccccc2)[C@H](O)[C@@H](O)[C@@H](Cc2ccccc2)N1Cc1ccc(CO)cc1 | MT-2 | ROD | <0.05 µM |
| Cc1cn([C@H]2C=C[C@@H](COP3(=O)Oc4ccccc4C(C)O3)O2)c(=O)[nH]c1=O | CEM + CEM/O |  | 0.34 µM |
| Cc1cn([C@H]2CC[C@@H](O)[C@H]2CO)c(=O)[nH]c1=O | CEM + CEM/0 |  | >250 µM |
| Cc1cn([C@H]2C=C[C@@H](COP3(=O)OCc4cc(-c5ccccc5)ccc4O3)O2)c(=O)[nH]c1=O | CEM + CEM TK- |  | 2 µM |
| CCOP(=O)(/C=C/n1cc(C)c(=O)[nH]c1=O)OCC | CEM + CEM-SS | ROD | >200 µM |
| Nc1nc2c(ncn2C2CC=C[C@H]2CO)c(=O)[nH]1 | CEM/TK- | ROD | >100 µM |
| Cc1cn([C@H]2C=C[C@@H](COP3(=O)OCc4cc5ccccc5cc4O3)O2)c(=O)[nH]c1=O | CEM + CEM/O |  | 0.5 µM |
| Nc1nc2c(ncn2C2C=C[C@@H](CO)C2)c(=O)[nH]1 | CEM | ROD | 3 µM |
| Cc1cc(C)c2c(c1)COP(=O)(OC[C@H]1O[C@@H](n3cc(C)c(=O)[nH]c3=O)C[C@@H]1N=[N+]=[N-])O2 | CEM + CEM/O |  | 0.017 µM |
| Cc1cn([C@@H]2CC[C@H](O)[C@H]2CO)c(=O)[nH]c1=O | CEM + CEM/0 |  | 103 µM |
| O=c1[nH]cnc2c1ncn2[C@H]1CC[C@@H](CO)O1 | PBMC | ROD | 0.5 µM |
| CO[P@](=O)(c1cc(C)cc(/C=C/C#N)c1)c1c(C(N)=O)[nH]c2ccc(Cl)c(F)c12 | H9 | ROD | >1.25 µM |
| COC(=O)[C@@H](C)NP(=O)(OC[C@@H]1C=C[C@H](n2cc(C)c(=O)[nH]c2=O)O1)Oc1ccccc1 | CEM |  | 2.5 µM |
| Cc1cn([C@H]2C[C@H](N=[N+]=[N-])[C@@H](COP3(=O)OCc4cc([N+](=O)[O-])ccc4O3)O2)c(=O)[nH]c1=O | CEM + CEM TK- |  | >100 µM |
| Cc1cn([C@H]2C=C[C@@H](COP3(=O)OCc4ccc5ccccc5c4O3)O2)c(=O)[nH]c1=O | CEM + CEM TK- |  | 0.6 µM |
| Cc1cn([C@@H]2O[C@H](CO[Si](C)(C)C(C)(C)C)C3(OC(=O)N(C)C3=N)[C@H]2O[Si](C)(C)C(C)(C)C)c(=O)n(C)c1=O | MT-4 | ROD | >175 µM |
| Nc1ccn([C@H]2CC[C@@H](CO)O2)c(=O)n1 | PBMC | ROD | 0.05 µM |
| CC1=C(C(=O)Nc2ccc(Cl)c(C(=O)OC(C)C)c2)SCCO1 | MT-2 | NIH-D2 | >200 µM |
| CCOP(=O)(/C=C\n1cc(F)c(=O)[nH]c1=O)OCC | CEM + CEM-SS | ROD | >200 µM |
| Cc1cn([C@H]2C=C[C@@H](COP3(=O)Oc4ccccc4C(C(Cl)(Cl)Cl)O3)O2)c(=O)[nH]c1=O | CEM + CEM TK- |  | 42 µM |
| Cc1ccnc2c1NC(=O)c1cccnc1N2C1CC1 | PBMC | ROD | >62.5 µM |
| O=c1[nH]c(=O)n(/C=C/P(=O)(O)O)cc1I | CEM + CEM-SS | ROD | >200 µM |
| Cc1cn([C@H]2C[C@H](N=[N+]=[N-])[C@@H](COP3(=O)OCc4cc(Cl)ccc4O3)O2)c(=O)[nH]c1=O | CEM + CEM TK- |  | >40 µM |
| Cc1cccc2c1OP(=O)(OC[C@@H]1C=C[C@H](n3cc(C)c(=O)[nH]c3=O)O1)OC2 | CEM |  | 0.07 µM |

The first 4 rows once more:

| structure | cell line | strain or isolate | value |
|---|---|---|---|
| Cc1cn([C@H]2C=C[C@@H](COP3(=O)OCc4cc(C(C)(C)C)cc(C(C)(C)C)c4O3)O2)c(=O)[nH]c1=O | CEM |  | 2 µM |
| CCCCCCCCCCCCCCCOP(=O)(OCc1ccc(OC(=O)CCCC)cc1)OP(=O)(O)OP(=O)(O)OC[C@@H]1C=C[C@H](n2cc(C)c(=O)[nH]c2=O)O1 | CEM/TK- |  | 0.39 µM |
| COc1ccc2c(c1)COP(=O)(OC[C@H]1O[C@@H](n3cc(C)c(=O)[nH]c3=O)C[C@@H]1N=[N+]=[N-])O2 | CEM + CEM TK- |  | 30 µM |
| Cc1cn([C@H]2C=C[C@@H](COP3(=O)Oc4ccccc4C(CCl)O3)O2)c(=O)[nH]c1=O | CEM + CEM/O |  | 0.35 µM |